Tests used:
Settings in all cases: oocyte
[1] = biological target: Neuronal acetylcholine receptor subunit alpha-7 (Rattus norvegicus, UniProt Q05941); assay: Inhibition of rat alpha7 nAChR expressed in Xenopus laevis oocytes assessed as inhibition of acetylcholine-induced current response by two-electrode voltage-clamp method
[2] = biological target: Neuronal acetylcholine receptor; alpha4/beta2 (Rattus norvegicus, UniProt P09483+P12390); assay: Inhibition of rat alpha4beta2 nAChR expressed in Xenopus laevis oocytes assessed as inhibition of acetylcholine-induced current response by two-electrode voltage-clamp method
[3] = biological target: Neuronal acetylcholine receptor; alpha3/beta4 (Rattus norvegicus, UniProt P04757+P12392); assay: Inhibition of rat alpha3beta4 nAChR expressed in Xenopus laevis oocytes assessed as inhibition of acetylcholine-induced current response by two-electrode voltage-clamp method
[4] = biological target: Nicotinic acetylcholine receptor alpha6/alpha3/beta4 (Rattus norvegicus, UniProt P04757+P12392+P43143)
[5] = biological target: Neuronal acetylcholine receptor; alpha3/beta2 (Rattus norvegicus, UniProt P04757+P12390); assay: Inhibition of rat alpha3beta2 nAChR expressed in Xenopus laevis oocytes assessed as inhibition of acetylcholine-induced current response by two-electrode voltage-clamp method
[6] = biological target: Neuronal acetylcholine receptor; alpha4/beta4 (Rattus norvegicus, UniProt P09483+P12392); assay: Inhibition of rat alpha4beta4 nAChR expressed in Xenopus laevis oocytes assessed as inhibition of acetylcholine-induced current response by two-electrode voltage-clamp method
[7] = biological target: Nicotinic acetylcholine receptor alpha6/alpha3/beta2/beta3 (Rattus norvegicus, UniProt P04757+P12390+P12391+P43143); assay: Inhibition of rat alpha6/alpha3beta2beta3 nAChR expressed in Xenopus laevis oocytes assessed as inhibition of acetylcholine-induced current response by two-electrode voltage-clamp method
[8] = biological target: Nicotinic acetylcholine receptor alpha6/alpha3/beta4 (Homo sapiens, UniProt P30926+P32297+Q15825)
[9] = biological target: Neuronal acetylcholine receptor subunit alpha-6/beta-4 (Rattus norvegicus, UniProt P12392+P43143)

By UniProt entry, the sequences of proteins in these tests, tags left out. Residues count along the entry.
UniProt Q05941, 23-502 limits assumed: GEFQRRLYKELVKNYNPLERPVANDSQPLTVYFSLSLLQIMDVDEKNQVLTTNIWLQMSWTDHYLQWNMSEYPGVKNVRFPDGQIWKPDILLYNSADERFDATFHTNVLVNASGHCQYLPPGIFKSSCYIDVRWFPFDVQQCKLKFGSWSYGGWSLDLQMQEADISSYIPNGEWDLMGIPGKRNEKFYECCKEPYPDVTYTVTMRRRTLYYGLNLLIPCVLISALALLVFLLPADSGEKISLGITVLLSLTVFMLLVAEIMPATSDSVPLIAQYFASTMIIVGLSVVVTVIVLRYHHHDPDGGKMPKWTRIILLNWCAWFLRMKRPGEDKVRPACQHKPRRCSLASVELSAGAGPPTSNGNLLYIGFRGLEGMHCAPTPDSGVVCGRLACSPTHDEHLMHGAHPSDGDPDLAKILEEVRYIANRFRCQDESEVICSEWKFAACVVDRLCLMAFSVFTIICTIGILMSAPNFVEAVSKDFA
UniProt P09483, 31-630 limits assumed: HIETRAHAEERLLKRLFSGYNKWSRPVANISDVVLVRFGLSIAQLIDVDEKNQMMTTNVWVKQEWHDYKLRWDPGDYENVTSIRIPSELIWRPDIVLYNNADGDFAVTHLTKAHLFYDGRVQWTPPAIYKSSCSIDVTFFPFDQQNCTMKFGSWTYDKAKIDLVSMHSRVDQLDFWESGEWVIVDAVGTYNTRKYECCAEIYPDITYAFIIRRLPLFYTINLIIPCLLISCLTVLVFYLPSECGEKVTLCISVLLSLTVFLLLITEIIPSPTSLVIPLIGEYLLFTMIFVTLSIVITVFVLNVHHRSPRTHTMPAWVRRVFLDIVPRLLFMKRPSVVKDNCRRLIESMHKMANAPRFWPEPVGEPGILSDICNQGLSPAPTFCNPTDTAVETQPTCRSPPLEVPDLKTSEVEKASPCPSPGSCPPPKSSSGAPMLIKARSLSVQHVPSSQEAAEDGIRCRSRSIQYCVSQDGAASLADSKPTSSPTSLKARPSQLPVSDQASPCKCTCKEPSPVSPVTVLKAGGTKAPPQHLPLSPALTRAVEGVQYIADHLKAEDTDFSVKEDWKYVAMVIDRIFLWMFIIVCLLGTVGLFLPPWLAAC
UniProt P12390, 25-500 limits assumed: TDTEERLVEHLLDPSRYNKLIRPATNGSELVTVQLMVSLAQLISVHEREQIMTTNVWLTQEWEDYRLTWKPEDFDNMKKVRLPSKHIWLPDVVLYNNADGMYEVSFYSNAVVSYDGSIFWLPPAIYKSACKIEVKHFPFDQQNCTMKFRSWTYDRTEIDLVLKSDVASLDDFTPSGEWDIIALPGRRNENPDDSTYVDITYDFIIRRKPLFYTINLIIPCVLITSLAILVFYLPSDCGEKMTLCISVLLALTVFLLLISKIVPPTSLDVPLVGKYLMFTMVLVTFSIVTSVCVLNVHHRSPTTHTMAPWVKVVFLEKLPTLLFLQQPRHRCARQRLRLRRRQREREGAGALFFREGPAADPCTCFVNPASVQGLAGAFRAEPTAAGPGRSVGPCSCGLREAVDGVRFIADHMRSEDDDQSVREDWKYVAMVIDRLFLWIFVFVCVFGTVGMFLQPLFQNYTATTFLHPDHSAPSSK
UniProt P04757, 26-499 limits assumed: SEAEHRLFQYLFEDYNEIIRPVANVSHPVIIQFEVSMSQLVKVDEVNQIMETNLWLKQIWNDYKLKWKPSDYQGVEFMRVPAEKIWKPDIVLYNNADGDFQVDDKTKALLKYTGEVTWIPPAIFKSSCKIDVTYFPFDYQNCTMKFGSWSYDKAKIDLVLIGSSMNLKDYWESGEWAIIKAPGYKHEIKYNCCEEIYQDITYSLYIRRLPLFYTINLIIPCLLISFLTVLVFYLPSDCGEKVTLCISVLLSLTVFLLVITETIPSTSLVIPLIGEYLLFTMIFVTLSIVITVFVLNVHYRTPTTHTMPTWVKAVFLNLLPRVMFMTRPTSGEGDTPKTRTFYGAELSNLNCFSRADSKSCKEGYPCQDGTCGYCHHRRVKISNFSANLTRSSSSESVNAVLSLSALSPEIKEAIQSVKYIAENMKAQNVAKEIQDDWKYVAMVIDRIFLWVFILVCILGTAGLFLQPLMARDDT
UniProt P12392, 21-495 limits assumed: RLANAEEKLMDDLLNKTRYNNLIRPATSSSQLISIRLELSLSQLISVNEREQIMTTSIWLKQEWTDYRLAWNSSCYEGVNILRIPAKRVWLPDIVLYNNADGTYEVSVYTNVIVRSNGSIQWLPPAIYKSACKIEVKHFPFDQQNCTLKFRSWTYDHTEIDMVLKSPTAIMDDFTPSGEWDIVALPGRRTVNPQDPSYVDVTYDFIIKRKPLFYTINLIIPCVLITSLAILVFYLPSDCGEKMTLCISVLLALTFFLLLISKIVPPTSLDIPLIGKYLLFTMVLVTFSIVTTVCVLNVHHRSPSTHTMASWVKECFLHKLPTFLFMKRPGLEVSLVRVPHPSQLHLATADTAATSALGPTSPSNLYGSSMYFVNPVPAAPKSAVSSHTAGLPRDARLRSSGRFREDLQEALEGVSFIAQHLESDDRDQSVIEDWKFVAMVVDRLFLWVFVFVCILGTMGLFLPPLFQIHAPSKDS
UniProt P43143, 31-493 limits assumed: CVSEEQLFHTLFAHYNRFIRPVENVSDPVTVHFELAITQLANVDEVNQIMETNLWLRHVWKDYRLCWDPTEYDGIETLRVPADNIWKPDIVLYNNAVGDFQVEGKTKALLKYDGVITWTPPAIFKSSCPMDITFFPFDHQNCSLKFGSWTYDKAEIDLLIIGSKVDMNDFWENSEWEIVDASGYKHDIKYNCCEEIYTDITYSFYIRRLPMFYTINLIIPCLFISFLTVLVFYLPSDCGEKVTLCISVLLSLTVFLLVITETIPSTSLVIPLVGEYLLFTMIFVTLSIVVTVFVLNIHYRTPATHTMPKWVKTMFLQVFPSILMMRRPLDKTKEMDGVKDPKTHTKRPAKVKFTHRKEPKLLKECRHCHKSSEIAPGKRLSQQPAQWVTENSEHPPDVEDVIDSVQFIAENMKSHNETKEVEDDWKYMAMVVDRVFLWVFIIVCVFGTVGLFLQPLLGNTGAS
UniProt P12391, 31-464 limits assumed: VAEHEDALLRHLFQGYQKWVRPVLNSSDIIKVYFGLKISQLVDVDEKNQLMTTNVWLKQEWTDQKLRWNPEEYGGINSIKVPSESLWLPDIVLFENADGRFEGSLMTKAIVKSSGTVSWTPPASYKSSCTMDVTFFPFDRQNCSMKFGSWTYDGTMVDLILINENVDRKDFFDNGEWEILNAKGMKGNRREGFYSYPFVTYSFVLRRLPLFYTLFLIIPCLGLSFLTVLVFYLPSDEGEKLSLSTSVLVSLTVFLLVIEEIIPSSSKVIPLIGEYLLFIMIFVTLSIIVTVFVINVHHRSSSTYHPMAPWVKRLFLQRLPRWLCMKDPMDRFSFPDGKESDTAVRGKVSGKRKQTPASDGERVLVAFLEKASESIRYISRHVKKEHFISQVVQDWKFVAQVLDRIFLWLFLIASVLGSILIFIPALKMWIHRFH
UniProt P30926, 22-498 limits assumed: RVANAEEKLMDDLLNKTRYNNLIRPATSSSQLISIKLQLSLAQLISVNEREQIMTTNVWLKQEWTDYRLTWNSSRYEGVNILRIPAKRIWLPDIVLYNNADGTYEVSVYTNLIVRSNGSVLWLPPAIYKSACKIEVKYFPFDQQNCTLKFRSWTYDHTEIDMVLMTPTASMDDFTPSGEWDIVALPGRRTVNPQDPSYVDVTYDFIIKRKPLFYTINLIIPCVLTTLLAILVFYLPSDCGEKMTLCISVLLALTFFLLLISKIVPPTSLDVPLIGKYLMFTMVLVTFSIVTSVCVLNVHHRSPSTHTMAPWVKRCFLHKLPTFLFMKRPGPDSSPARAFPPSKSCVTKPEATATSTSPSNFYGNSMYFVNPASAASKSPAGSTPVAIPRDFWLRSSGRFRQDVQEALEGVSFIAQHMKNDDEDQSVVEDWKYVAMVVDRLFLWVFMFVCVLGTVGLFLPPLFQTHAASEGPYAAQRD
UniProt P32297, 32-505 limits assumed: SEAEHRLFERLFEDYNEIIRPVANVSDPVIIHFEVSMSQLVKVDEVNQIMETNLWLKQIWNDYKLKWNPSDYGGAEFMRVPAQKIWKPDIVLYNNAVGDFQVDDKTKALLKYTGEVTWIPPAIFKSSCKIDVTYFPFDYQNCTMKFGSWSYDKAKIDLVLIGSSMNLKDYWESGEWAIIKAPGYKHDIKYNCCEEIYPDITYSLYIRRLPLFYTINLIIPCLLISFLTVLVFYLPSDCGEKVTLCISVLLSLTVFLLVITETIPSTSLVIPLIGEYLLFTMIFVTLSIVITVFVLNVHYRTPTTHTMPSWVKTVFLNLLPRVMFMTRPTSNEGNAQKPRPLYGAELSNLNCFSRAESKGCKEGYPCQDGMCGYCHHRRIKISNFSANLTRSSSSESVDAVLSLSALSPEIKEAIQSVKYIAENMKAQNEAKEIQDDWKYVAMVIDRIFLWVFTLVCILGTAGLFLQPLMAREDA
UniProt Q15825, 26-494 limits assumed: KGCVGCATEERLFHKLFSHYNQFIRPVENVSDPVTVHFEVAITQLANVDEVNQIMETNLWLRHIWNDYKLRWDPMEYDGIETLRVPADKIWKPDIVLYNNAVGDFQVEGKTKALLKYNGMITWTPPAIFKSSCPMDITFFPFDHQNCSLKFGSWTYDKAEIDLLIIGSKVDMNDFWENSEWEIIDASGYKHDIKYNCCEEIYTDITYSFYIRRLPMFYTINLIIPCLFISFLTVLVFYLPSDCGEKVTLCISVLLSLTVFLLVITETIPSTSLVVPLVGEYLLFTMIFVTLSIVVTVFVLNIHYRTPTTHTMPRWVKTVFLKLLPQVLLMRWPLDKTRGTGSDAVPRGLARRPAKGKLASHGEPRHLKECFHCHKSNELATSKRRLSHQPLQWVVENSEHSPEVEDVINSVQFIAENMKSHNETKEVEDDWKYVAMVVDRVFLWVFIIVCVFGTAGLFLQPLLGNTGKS

Work on `CC(C)C[C@@H]1NC(=O)[C@H](C(C)C)NC(=O)[C@H](C)NC(=O)[C@@H]2CSSC[C@H](NC(=O)CN)C(=O)N[C@@H](CSSC[C@@H](C(=O)O)NC(=O)[C@H](Cc3ccc(O)cc3)NC1=O)C(=O)N[C@@H](C)C(=O)N[C@@H]([C@H](C)O)C(=O)N1C[C@H](O)C[C@H]1C(=O)N1CCC[C@H]1C(=O)N2` yielded an IC50 [1] of over 10000 nM, an IC50 [2] of over 10000 nM and an IC50 [3] of 1200 nM. For the same molecule, the IC50 [4] was 58.1 nM, the IC50 [5] was over 10000 nM and the IC50 [6] was over 10000 nM. The IC50 [7] was 58.1 nM.

`CC(C)C[C@@H]1NC(=O)[C@H](CCC(=O)O)NC(=O)[C@@H]2CCCN2C(=O)[C@H](Cc2cnc[nH]2)NC(=O)[C@H](CC(N)=O)NC(=O)[C@H](C(C)C)NC(=O)[C@H](CC(N)=O)NC(=O)[C@@H]2CSSC[C@H](NC(=O)CN)C(=O)N[C@@H](CSSC[C@@H](C(N)=O)NC1=O)C(=O)N[C@@H](CO)C(=O)N[C@@H](Cc1cnc[nH]1)C(=O)N1CCC[C@H]1C(=O)N[C@@H](C)C(=O)N2` gave an IC50 [8] of 2.2 nM, an IC50 [9] of 17.2 nM and an IC50 [4] of 13.4 nM.

`CC(C)C[C@@H]1NC(=O)[C@H](CCC(=O)O)NC(=O)[C@@H]2CCCN2C(=O)[C@H](Cc2cnc[nH]2)NC(=O)[C@H](CC(N)=O)NC(=O)[C@H](C(C)C)NC(=O)[C@H](CO)NC(=O)[C@@H]2CSSC[C@H](NC(=O)CN)C(=O)N[C@@H](CSSC[C@@H](C(N)=O)NC1=O)C(=O)N[C@@H](CO)C(=O)N[C@@H](Cc1cnc[nH]1)C(=O)N1CCC[C@H]1C(=O)N[C@@H](C(C)C)C(=O)N2` showed an IC50 [8] of 3.52 nM, an IC50 [9] of 27.2 nM and an IC50 [4] of 20.9 nM.

For `CC(C)C[C@@H]1NC(=O)[C@H](CCC(=O)O)NC(=O)[C@@H]2CCCN2C(=O)[C@H](Cc2cnc[nH]2)NC(=O)[C@H](CCCNC(=N)N)NC(=O)[C@H](C(C)C)NC(=O)[C@H](CO)NC(=O)[C@@H]2CSSC[C@H](NC(=O)CN)C(=O)N[C@@H](CSSC[C@@H](C(N)=O)NC1=O)C(=O)N[C@@H](CO)C(=O)N[C@@H](Cc1cnc[nH]1)C(=O)N1CCC[C@H]1C(=O)N[C@@H](C)C(=O)N2`, the IC50 [8] was 2.24 nM, the IC50 [9] was 23.3 nM and the IC50 [4] was 14.7 nM.

`CC(C)C[C@@H]1NC(=O)[C@H](CCC(=O)O)NC(=O)[C@@H]2CCCN2C(=O)[C@H](Cc2cnc[nH]2)NC(=O)[C@H](CC(N)=O)NC(=O)[C@H](C(C)C)NC(=O)[C@H](CO)NC(=O)[C@@H]2CSSC[C@H](NC(=O)CN)C(=O)N[C@@H](CSSC[C@@H](C(N)=O)NC1=O)C(=O)N[C@@H](CO)C(=O)N[C@@H](C)C(=O)N1CCC[C@H]1C(=O)N[C@@H](C)C(=O)N2` gave an IC50 [8] of 7610 nM and an IC50 [4] of over 10000 nM.

`CC[C@H](C)[C@@H]1NC(=O)[C@H](CCC(=O)O)NC(=O)[C@@H]2CCCN2C(=O)[C@H](Cc2cnc[nH]2)NC(=O)[C@H](CC(N)=O)NC(=O)[C@H](C(C)C)NC(=O)[C@H](CO)NC(=O)[C@@H]2CSSC[C@H](NC(=O)CN)C(=O)N[C@@H](CSSC[C@@H](C(N)=O)NC1=O)C(=O)N[C@@H](CO)C(=O)N[C@@H](Cc1cnc[nH]1)C(=O)N1CCC[C@H]1C(=O)N[C@@H](C)C(=O)N2` gave an IC50 [8] of 2.84 nM, an IC50 [9] of 49.7 nM and an IC50 [4] of 113 nM.

For `CC(C)C[C@@H]1NC(=O)[C@H](CCC(N)=O)NC(=O)[C@@H]2CCCN2C(=O)[C@H](Cc2cnc[nH]2)NC(=O)[C@H](CC(N)=O)NC(=O)[C@H](C(C)C)NC(=O)[C@H](CO)NC(=O)[C@@H]2CSSC[C@H](NC(=O)CN)C(=O)N[C@@H](CSSC[C@@H](C(N)=O)NC1=O)C(=O)N[C@@H](CO)C(=O)N[C@@H](Cc1cnc[nH]1)C(=O)N1CCC[C@H]1C(=O)N[C@@H](C)C(=O)N2`, the IC50 [8] was 12.6 nM and the IC50 [4] was 180 nM.

In the case of `CC(C)C[C@@H]1NC(=O)[C@H](CCC(=O)O)NC(=O)[C@H](C)NC(=O)[C@H](Cc2cnc[nH]2)NC(=O)[C@H](CC(N)=O)NC(=O)[C@H](C(C)C)NC(=O)[C@H](CO)NC(=O)[C@@H]2CSSC[C@H](NC(=O)CN)C(=O)N[C@@H](CSSC[C@@H](C(N)=O)NC1=O)C(=O)N[C@@H](CO)C(=O)N[C@@H](Cc1cnc[nH]1)C(=O)N1CCC[C@H]1C(=O)N[C@@H](C)C(=O)N2`, the IC50 [8] is reported as 73.3 nM and the IC50 [4] is reported as 381 nM.

`CC(C)C[C@@H]1NC(=O)[C@H](CCC(=O)O)NC(=O)[C@@H]2CCCN2C(=O)[C@H](Cc2cnc[nH]2)NC(=O)[C@H](CC(N)=O)NC(=O)[C@H](C(C)C)NC(=O)[C@H](Cc2ccc(O)cc2)NC(=O)[C@@H]2CSSC[C@H](NC(=O)CN)C(=O)N[C@@H](CSSC[C@@H](C(N)=O)NC1=O)C(=O)N[C@@H](CO)C(=O)N[C@@H](Cc1cnc[nH]1)C(=O)N1CCC[C@H]1C(=O)N[C@@H](C)C(=O)N2` was tested, and the IC50 [8] was 30.6 nM and the IC50 [4] was 86.9 nM.
